Results as given in PubChem BioAssay AID485275 (NMMLSC, 2010).
The list shows a part of the results, in another mix than the full data. Active and inactive are the calls of the source.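 Rule for the calls: active = plate passing quality check with inhibition over a set limit, or well fluorescence over plate mean plus 4 SD; inactive = the rest.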

Test: antifungal drug efflux pump blockers, triplex strains – S. cerevisiae, Nile Red, multiplex, primary screen (AID 485275);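 note: Nile Red retained in pooled yeast measured as flow cytometry median fluorescence; 0% = buffer negative control and 100% = Enniatin B positive control; higher means more Nile Red kept so more efflux inhibition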
Conditions: S. cerevisiae Candida pump triplex, at 10 µM, hits give high values

Q: For `CCc1nc2c(n1)c1c(non1O)c1c2no[n+]1[O-]`, which inhibition is on record?
A: inactive: -0.07%

Q: For `O=[N+]([O-])c1cc([N+](=O)[O-])c(CCNc2ccccc2)c([N+](=O)[O-])c1`, which inhibition is on record?
A: inactive: 0.37%

Q: Which inhibition does the source give for `Nc1ccc([As](=O)(O)c2ccc(N)cc2)cc1` here?
A: inactive: -0.07%

Q: For `C[N+]1=C2C=CC=CC=C2SC12C([N+](=O)[O-])=CC([N+](=O)[O-])=C[C-]2[N+](=O)[O-]` (stereo not given), which inhibition is on record?
A: inactive: 0.39%

Q: With `CCN(/C(=N/P(=O)(N1CCOCC1)N1CCOCC1)N1CCOCC1)c1ccc(OC)cc1` as the compound, how does the inhibition read?
A: inactive: -0.03%

Q: For `CC(C)=N/N=C(\N)N[N+](=O)[O-]`, which inhibition is on record?
A: inactive: -0.12%

Q: For `CN(C)C(=O)OCCc1n(C)cc[n+]1C`, which inhibition is on record?
A: inactive: 0.08%

Q: With `CC1CCN(C(=O)Oc2c(Cl)cc(Cl)c3cccnc23)CC1` as the compound, how does the inhibition read?
A: inactive: -0.06%

Q: For `O=C(Nc1cc([As](=O)(O)O)ccc1O)c1ccccc1`, which inhibition is on record?
A: inactive: 0.09%

Q: Which inhibition does the source give for `CC(C)(C)C(=O)NC(Sc1ccncn1)C(Cl)(Cl)Cl` (stereo not given) here?
A: inactive: 0.03%

Q: For `O=[N+]([O-])c1ncn(CCn2ncnc2[N+](=O)[O-])n1`, which inhibition is on record?
A: inactive: -0.05%

Q: Which inhibition does the source give for `O=[N+]([O-])c1cccc(NC2=NCC(CBr)S2)c1` (stereo not given) here?
A: inactive: -0.13%

Q: Which inhibition does the source give for `O=C(O)CNc1ccc([As](=O)(O)O)cc1` here?
A: inactive: 0.03%

Q: For `O=C(O)c1ccccc1[As](=O)(O)O`, which inhibition is on record?
A: inactive: -0.81%

Q: Which inhibition does the source give for `CC(=O)Nc1ccc([As](=O)(O)O)cc1` here?
A: inactive: -0.16%

Q: Which inhibition does the source give for `O=P(Nc1nc2ccc(Cl)cc2s1)(c1ccccc1)c1ccccc1` here?
A: inactive: 0.17%

Q: With `CCOP(=O)(Nc1ccccc1)OCC` as the compound, how does the inhibition read?
A: inactive: 0.06%

Q: With `Cc1cc(SC(NC(=O)c2ccc(F)cc2)C(Cl)(Cl)Cl)ncn1` (stereo not given) as the compound, how does the inhibition read?
A: inactive: 0.05%

Q: With `Cc1ccc(NP(=O)(Oc2ccccc2F)Oc2ccccc2F)nc1` as the compound, how does the inhibition read?
A: inactive: -0.17%

Q: Which inhibition does the source give for `CN(C(=O)Cc1ccc(Cl)c(Cl)c1)[C@H]1CCCC[C@@H]1N1CCCC1` here?
A: inactive: 0.29%

Q: For `O=[N+]([O-])c1cc([N+](=O)[O-])c(CCN2CCOCC2)c([N+](=O)[O-])c1`, which inhibition is on record?
A: inactive: 0.04%

Q: With `CCN(N=Nc1nonc1N)c1nonc1N` as the compound, how does the inhibition read?
A: inactive: -0.13%

Q: With `Nc1cccc2ccc([As](=O)(O)O)cc12` as the compound, how does the inhibition read?
A: inactive: 0.27%

Q: With `NC(=O)c1cc([N+](=O)[O-])cc([N+](=O)[O-])c1N` as the compound, how does the inhibition read?
A: inactive: 0.13%

Q: For `CN(C(=O)Cc1ccc(Cl)c(Cl)c1)[C@H]1CCCC[C@H]1N1CCCC1`, which inhibition is on record?
A: inactive: -0.18%

Q: With `Cc1ccc(N/C(=N/P(=O)(N2CCOCC2)N2CCOCC2)N2CCOCC2)cc1` as the compound, how does the inhibition read?
A: inactive: -0.09%

Q: Which inhibition does the source give for `COc1ccccc1OP(=O)(Nc1ccc(C)cn1)Oc1ccccc1OC` here?
A: inactive: -0.08%

Q: For `Cc1ccc(OP(=O)(Nc2nccs2)Oc2ccc(C)cc2)cc1`, which inhibition is on record?
A: inactive: 0.08%

Q: With `Clc1ccc(Cl)c(NC2=NCC(CBr)S2)c1` (stereo not given) as the compound, how does the inhibition read?
A: inactive: -0.01%

Q: For `CN1CCCC(OC(=O)C(c2ccccc2)c2ccccc2)C1` (stereo not given), which inhibition is on record?
A: inactive: -0.01%

Q: For `CC(C)CC(=O)NC(Sc1ccc(Cl)cc1)C(Cl)(Cl)Cl` (stereo not given), which inhibition is on record?
A: inactive: 0.1%

Q: For `Nc1cc(N)c2nonc2c1[N+](=O)[O-]`, which inhibition is on record?
A: inactive: 0.2%

Q: With `Oc1ccccc1CNc1ccccn1` as the compound, how does the inhibition read?
A: inactive: -0.03%

Q: For `Cc1c2non([O-])c-2c(C)[n+](=O)[n+]1[O-]`, which inhibition is on record?
A: inactive: -0.07%

Q: With `O=C(NC(Sc1ccncn1)C(Cl)(Cl)Cl)c1ccccc1` (stereo not given) as the compound, how does the inhibition read?
A: inactive: -0.24%

Q: With `O=P1(Nc2nc3ccc(Cl)cc3s2)COc2ccccc2O1` (stereo not given) as the compound, how does the inhibition read?
A: inactive: 0.02%

Q: For `CCOc1ccc(C2=NCC(CBr)S2)cc1` (stereo not given), which inhibition is on record?
A: inactive: 0.08%

Q: For `CC(C)(C)C(=O)NC(Sc1ccccc1)C(Cl)(Cl)Cl` (stereo not given), which inhibition is on record?
A: inactive: -0.02%

Q: For `CC(=O)c1ccc(N2CC2c2ccncc2)cc1` (stereo not given), which inhibition is on record?
A: inactive: -0.02%

Q: With `Cc1ccccc1CN(C)C(=O)COC(=O)C(O)(c1ccccc1)c1ccccc1` as the compound, how does the inhibition read?
A: inactive: 0.21%

Q: Which inhibition does the source give for `C[C@@H]1C=CCP(=O)(Oc2ccccc2)O1` (stereo not given in full) here?
A: inactive: -0.12%

Q: For `C[C@H]1OP(=O)(Oc2ccccc2)C[C@@H]2O[C@@H]21` (stereo not given in full), which inhibition is on record?
A: inactive: -0.08%

Q: Which inhibition does the source give for `CC(=O)Nc1ccc([As](=O)(O)O)c(O)c1` here?
A: inactive: 0.52%

Q: Which inhibition does the source give for `CC(=O)Nc1ccc(Oc2c([N+](=O)[O-])cc([N+](=O)[O-])cc2[N+](=O)[O-])cc1` here?
A: inactive: -0.01%

Q: Which inhibition does the source give for `CCNC(=S)/N=C(\N)N[N+](=O)[O-]` here?
A: inactive: -0.04%

Q: For `O=C(NC1CCS(=O)(=O)C1)NP(=S)(Oc1ccccc1)Oc1ccccc1` (stereo not given), which inhibition is on record?
A: inactive: 0.08%

Q: Which inhibition does the source give for `c1ccc(-c2nn[nH]n2)c(-c2nn[nH]n2)c1` here?
A: inactive: 0.15%

Q: Which inhibition does the source give for `CCOC(=O)NC(Sc1ccccc1)C(Cl)(Cl)Cl` (stereo not given) here?
A: inactive: 0.22%

Q: For `Cc1ccc(NP(=O)(Oc2cccc(C)c2)Oc2cccc(C)c2)nc1`, which inhibition is on record?
A: inactive: 0.15%

Q: With `COC(=O)c1cc2c(s1)N=C(c1ccccc1)N(C)P2(=O)N1CCOCC1` (stereo not given) as the compound, how does the inhibition read?
A: inactive: -0.02%
